A mixed list of measured activities; the numbers were collected in NIAID ChemDB.

Shared fields: growth or infection tests; species: Hepatitis B virus

ECn: concentration that inhibits the pathogen or its effect by n%. Blank or dashed fields: not listed here. Lines come from different laboratories, so protocols vary. Two numbers with a dash give a range or band.

SMILES | strain or isolate | changes | measure | cell line | read by | value
CCOC(=O)c1cn(COCCO)c(=S)[nH]c1=O | Mutation M204I | - | EC50 | B1 | - | 20 µM
Nc1nc(Cl)c2ncn(C=C3C[C@H]3CO)c2n1 | - | - | EC50 | 2.2.15 | - | >10 µM
C=C1[C@H](CO)[C@@H](O)C[C@@H]1n1cnc2c(=O)[nH]c(N)nc21 | - | - | EC50 | HepG2 2.2.15 | - | 0.0038 µM
CNC(=O)c1ccc(-n2c(=O)c3c(n4ncc(CC(C)C)c24)CN(C(=O)c2ccc(Cl)c(C(F)(F)F)c2)[C@@H](C)C3)cc1 | - | - | EC50 | HepG2.117 | luminescence | 0.05–0.5 µM
O=C(NCc1ccccc1)c1c2n(c(=O)n1-c1ccccn1)CCN(C(=O)c1ccc(Cl)c(Cl)c1)C2 | - | - | EC50 | HepG2.117 | PCR | >5 µM
CNC(=O)c1ccc(-n2c(=O)c3c(n4ncc(CC(C)C)c24)CN(C(=O)c2ccc(Cl)c(C(F)(F)F)c2)[C@H](C)C3)cc1 | - | - | EC50 | HepG2.117 | luminescence | ≤0.05 µM
N#CCOc1ccc(-n2c(C(=O)NCc3ccccc3)c3n(c2=O)CCN(C(=O)c2ccc(Br)c(Cl)c2)C3)cc1 | - | - | EC50 | HepG2.117 | PCR | 0.5–5 µM
C=C1C(COP(=O)(N[C@@H](C)C(=O)OC)Oc2ccccc2)C(O)C(F)C1n1cnc2c(N)ncnc21 | - | L180M+M204V+S202G | EC50 | Huh7 | - | 0.054 µM
C[C@H](NC(=O)c1c2n(c(=O)n1-c1ccc(OC3CC3)cc1)CCN(C(=O)c1ccc(Br)c(Cl)c1)C2)c1cccc2nccnc12 | - | - | EC50 | HepG2.117 | PCR | <0.1 µM
C[C@@H]1CS(=O)(=O)[C@@H](c2cccs2)CN1C(=O)Nc1ccc(F)c(Cl)c1 | - | - | EC50 | HepG2.2.15 | PCR | >5 µM
CC(C)COc1ccc(-n2c(C(=O)NCc3ccccc3)c3n(c2=O)CCN(C(=O)c2ccc(Br)c(Cl)c2)C3)cc1 | - | - | EC50 | HepG2.117 | PCR | 0.1–0.5 µM
CNC(=O)c1ccc(-n2c(=O)c3c(n4ncc(Cc5ccccc5)c24)CN(C(=O)c2ccc(Br)c(C(F)(F)F)c2)[C@H](C)C3)cc1 | - | - | EC50 | HepG2.117 | luminescence | ≤0.05 µM
CCc1cn(COCCO)c(=S)[nH]c1=O | Mutation M204I | - | EC50 | B1 | - | 20 µM
CNC(=O)c1cnc(-n2c(=O)c3c(n4ncc(CC(C)C)c24)CN(C(=O)c2ccc(Br)c(C(F)(F)F)c2)[C@@H](C)C3)nc1 | - | - | EC50 | HepG2.117 | luminescence | ≤0.05 µM
C[C@H](NC(=O)c1c2n(c(=O)n1-c1ccc(OC3CC3)cc1)CCN(C(=O)c1ccc(Br)c(Cl)c1)C2)c1ccc(OCC(N)=O)cc1-n1cccn1 | - | - | EC50 | HepG2.117 | PCR | >0.5 µM
C=C1[C@@H](n2cnc3c(N)ncnc32)[C@H](F)[C@H](O)[C@H]1CO | - | - | EC50 | Huh7 | - | 0.548 µM
C=CCNC(=O)C(=O)c1c(C)c(C(=O)Nc2ccc(F)c(C(F)(F)F)c2)n(C)c1C | - | - | EC50 | HepG2.2.15 | PCR | 0.001–0.00999 µM
Cc1nc(-c2ccc(-n3c(=O)c4c(n5ncc(CC(C)C)c35)CN(C(=O)c3ccc(Cl)c(C(F)(F)F)c3)[C@H](C)C4)cc2)n[nH]1 | - | - | EC50 | HepG2.117 | luminescence | ≤0.05 µM
Nc1cn(COCCO)c(=O)[nH]c1=O | Mutation M204I | - | EC50 | B1 | - | 30 µM
Cc1c(C(=O)C(=O)NC(C)(C)c2ccc(F)cn2)c(C)n(C)c1C(=O)Nc1ccc(F)c(C#N)c1 | - | - | EC50 | HepG2.2.15 | PCR | 0.001–0.0099 µM
CCOCC1=C(C(=O)OC)[C@H](c2ccc(F)cc2Cl)N=C(c2ncc(F)cc2F)N1 | - | - | EC50 | HepG2.2.15 | - | 0.06 µM
O=C(c1ccc(Br)c(Cl)c1)N1CCn2c(c3n(c2=O)C[C@H](O)CN(Cc2ccccc2)C3=O)C1 | - | - | EC50 | HepG2.117 | PCR | 0.5–5 µM
CC(C)Cc1cnn2c3c(c(=O)n(-c4ccc5c(c4)nnn5C)c12)C[C@H](C)N(C(=O)c1ccc(Br)c(C(F)(F)F)c1)C3 | - | - | EC50 | HepG2.117 | luminescence | 0.05–0.5 µM
Cc1c(C(=O)C(=O)NC(C)(C)c2ccncc2)c(C)n(C)c1C(=O)Nc1ccc(F)c(C#N)c1 | - | - | EC50 | HepG2.2.15 | PCR | 0.001–0.0099 µM
O=C(c1ccc(Cl)c(F)c1)N1CCS(=O)(=O)[C@@H](c2cccs2)C1 | - | - | EC50 | HepG2.117 | PCR | 0.1–0.5 µM
COc1cccc(C)c1CNC(=O)c1c2n(c(=O)n1-c1ccc(OCC(F)(F)F)cc1)CCN(C(=O)c1ccc(Br)c(Cl)c1)C2 | - | - | EC50 | HepG2.117 | PCR | 0.1–0.5 µM
CCOCC1=C(C(=O)OCC)C(c2ccc(F)cc2Cl)N=C(c2ncc(F)cc2F)N1 | - | - | EC50 | HepG2.2.15 | - | 0.15 µM
C.O=C(Nc1ccc(F)c(F)c1)c1cc(S(=O)(=O)N2CC(F)(F)C2)ccc1F | - | - | EC90 | HepAD38 | PCR | 6.3 µM
O=c1[nH]c(=O)n(COCCO)cc1Cl | Mutations L180M M204V | - | EC50 | D88 | - | 70 µM
CCOCC1=C(C(=O)OC)C(c2ccc(F)cc2Cl)N=C(c2ncc(F)cc2F)N1 | - | - | EC50 | HepG2.2.15 | - | 0.2 µM
C[C@H](c1ccccc1)c1cnc([C@]2(F)CN(C(=O)c3ccc(Br)c(Cl)c3)CCS2(=O)=O)s1 | - | - | EC50 | HepG2.117 | PCR | 0.5–5 µM
O=c1[nH]c(=O)n(COCCO)cc1[N+](=O)[O-] | Mutation M204I | - | EC50 | B1 | - | 30 µM
CN1c2cc3c(cc2NC(c2ccc(C(=O)O)cc2)c2ccccc21)C(C)(C)CCC3(C)C | Genotype D | - | EC50 | HepG2-NTCPsec+ | visual reading / absorbance | 11.68 µM
C#CCNC(=O)C(=O)c1cn(C)c(C(=O)Nc2ccc(F)c(C#N)c2)c1C | - | - | EC50 | HepG2.2.15 | PCR | 0.01–0.099 µM
Cc1nc(-c2ccc(-n3c(=O)c4c(n5ncc(Cc6ccccc6)c35)CN(C(=O)c3ccc(Br)c(Cl)c3)[C@H](C)C4)cc2)n[nH]1 | - | - | EC50 | HepG2.117 | luminescence | ≤0.05 µM
C#C[C@H](CCO)NC(=O)C(=O)c1c(C)c(C(=O)Nc2ccc(F)c(C#N)c2)n(C)c1C | - | - | EC50 | HepG2.2.15 | PCR | 0.001–0.0099 µM
N#Cc1ccc(CNC(=O)c2c3n(c(=O)n2-c2ccc(OCC(F)(F)F)cc2)CCN(C(=O)c2ccc(Br)c(Cl)c2)C3)c(F)c1 | - | - | EC50 | HepG2.117 | PCR | 0.5–5 µM
CC(C)Cc1cnn2c3c(c(=O)n(-c4ccc5c(c4)nnn5CCO)c12)C[C@H](C)N(C(=O)c1ccc(Br)c(C(F)(F)F)c1)C3 | - | - | EC50 | HepG2.117 | luminescence | 0.05–0.5 µM

Repeating the final 2 entries:

{"SMILES": "N#Cc1ccc(CNC(=O)c2c3n(c(=O)n2-c2ccc(OCC(F)(F)F)cc2)CCN(C(=O)c2ccc(Br)c(Cl)c2)C3)c(F)c1", "measure": "EC50", "cell line": "HepG2.117", "read by": "PCR", "value": "0.5–5 µM"}
{"SMILES": "CC(C)Cc1cnn2c3c(c(=O)n(-c4ccc5c(c4)nnn5CCO)c12)C[C@H](C)N(C(=O)c1ccc(Br)c(C(F)(F)F)c1)C3", "measure": "EC50", "cell line": "HepG2.117", "read by": "luminescence", "value": "0.05–0.5 µM"}